Share of PSTVd stem 15 variants by leaf site

From the data files of Wu et al. 2024, doi:10.1371/journal.ppat.1012142.

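A pool of all variants was put on leaves of three Nicotiana benthamiana plants. Progeny were sequenced from the inoculated region (day 5), the margin of the inoculated leaf (day 10) and systemic leaves (day 12).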

Region: stem 15 of PSTVd (intermediate strain), upper and lower strand joined, each 5' to 3', the first 9 letters being the upper strand. Wild type: CUGGAGCGAUCGCUUCGG. Varied positions (N): CUGGAGCGAUNGNNUNNG.

Numbers give reads per thousand; 0 = not seen among the reads, higher = more abundant. Each value is the mean of three plants. "Pool" is the share in the plasmid pool used as inoculum, on the same scale. The inoculated region was read from the minus strand, the other sites from the plus strand. IR is the inoculated region, LM the leaf margin, Sys the systemic leaves.

CUGGAGCGAUGGGAUACG (pool 0.889) read IR 0.246; LM 0.0350; Sys 0. With CUGGAGCGAUGGGAUUAG (pool 0.970) the assay gave IR 0.279; LM 0.0334; Sys 0. For CUGGAGCGAUAGAGUGGG (pool 0.792) the result was IR 0.247; LM 0.0197; Sys 0. CUGGAGCGAUUGAGUUGG (pool 0.727) read IR 0.306; LM 0.0463; Sys 0. With CUGGAGCGAUAGUCUAAG (pool 0.792) the assay gave IR 1.72; LM 0.290; Sys 0. With CUGGAGCGAUGGCGUGUG (pool 0.857) the assay gave IR 0.289; LM 0.0440; Sys 0.

For CUGGAGCGAUCGCUUGUG (pool 1.03) the result was IR 0.287; LM 0.0260; Sys 0.00660. With CUGGAGCGAUCGACUCCG (pool 1.05) the assay gave IR 0.444; LM 0.0381; Sys 0. CUGGAGCGAUAGGGUAUG (pool 1.00) gave IR 0.270; LM 0.0213; Sys 0. For CUGGAGCGAUCGCUUCAG (pool 1.07) the result was IR 32.1; LM 15.5; Sys 10.8. CUGGAGCGAUCGGUUACG (pool 0.954) read IR 0.287; LM 0.0303; Sys 0. For CUGGAGCGAUUGCUUUUG (pool 1.55) the result was IR 0.838; LM 0.0138; Sys 0.

CUGGAGCGAUCGUUUCUG (pool 0.970) gave IR 0.373; LM 0.0435; Sys 0. For CUGGAGCGAUUGGCUCAG (pool 0.776) the result was IR 1.35; LM 0.0419; Sys 0. CUGGAGCGAUGGAAUAAG (pool 0.857) read IR 0.227; LM 0.0213; Sys 0. For CUGGAGCGAUGGACUAAG (pool 1.05) the result was IR 1.27; LM 0.0378; Sys 0. For CUGGAGCGAUUGAGUAGG (pool 0.776) the result was IR 0.308; LM 0.0235; Sys 0. With CUGGAGCGAUUGAUUCGG (pool 1.03) the assay gave IR 0.300; LM 0.0249; Sys 0.00660.

For CUGGAGCGAUCGUAUGUG (pool 0.582) the result was IR 0.228; LM 0.0138; Sys 0. For CUGGAGCGAUCGUUUCCG (pool 0.808) the result was IR 0.306; LM 0.0213; Sys 0. With CUGGAGCGAUUGAAUGUG (pool 0.937) the assay gave IR 0.321; LM 0.0372; Sys 0. For CUGGAGCGAUCGUCUCGG (pool 0.792) the result was IR 0.262; LM 0.0441; Sys 0. For CUGGAGCGAUUGAAUGCG (pool 0.986) the result was IR 0.279; LM 0.0494; Sys 0. With CUGGAGCGAUCGUUUUAG (pool 0.937) the assay gave IR 1.64; LM 0.531; Sys 0.277.

With AUGGAGCGAUAGUGUUCG (pool 0.0162) the assay gave IR 0; LM 0; Sys 0. With CUGGAGCGAUAGUUUAGG (pool 0.824) the assay gave IR 0.351; LM 0.0632; Sys 0. CUGGAGCGAUUGUAUCGG (pool 0.889) read IR 0.239; LM 0.0329; Sys 0. For CUGGAGCGAUCGGGUGAG (pool 1.24) the result was IR 0.291; LM 0.0717; Sys 0. With CUGGAGCGAUAGCAUGCG (pool 0.954) the assay gave IR 0.264; LM 0.0519; Sys 0. For CUGGAGCGAUCGCUUGAG (pool 0.679) the result was IR 0.364; LM 0.0191; Sys 0.

With CUUGAGCGAUGGUUUGCG (pool 0.0162) the assay gave IR 0; LM 0; Sys 0. For CUGGAGCGAUUGGAUUCG (pool 0.873) the result was IR 0.349; LM 0.0106; Sys 0. CUGGAGCGAUAGGUUGAG (pool 0.792) gave IR 0.206; LM 0.0419; Sys 0. CUGGAGCGAUCGGGUUAG (pool 0.905) read IR 0.235; LM 0.00528; Sys 0. CUGGAGCGAUGGAGUCAG (pool 0.905) gave IR 0.289; LM 0.0729; Sys 0. For CUGGAGCGAUGGUGUGCG (pool 0.792) the result was IR 0.333; LM 0.0122; Sys 0.

For CGGGAGCGAUGGCGUGCG (pool 0.0162) the result was IR 0; LM 0; Sys 0. With CUGGAGCGAUGGGGUGGG (pool 0.889) the assay gave IR 0.268; LM 0.0213; Sys 0.

A selection of 4 entries from above:

sequence,pool,IR,LM,Sys
CUGGAGCGAUCGUAUGUG,0.582,0.228,0.0138,0
CUUGAGCGAUGGUUUGCG,0.0162,0,0,0
CUGGAGCGAUAGUUUAGG,0.824,0.351,0.0632,0
CUGGAGCGAUCGUUUCUG,0.970,0.373,0.0435,0

Samples held 36,693 to 63,082 reads, so the smallest values rest on one or two reads. Wild type was 10.2 per thousand in the pool and the most common sequence in every sample (inoculated region 285, 367, 312; leaf margin 785, 865, 782; systemic leaves 854, 898, 915). Sequences that differ at fixed positions probably stem from PCR or sequencing errors, and defective variants can be carried along by functional ones.